Measured values reported in paper PMC7555312, “Functional Characterization of Temporin-SHe, a New Broad-Spectrum Antibacterial and Leishmanicidal Temporin-SH Paralog from the Sahara Frog (Pelophylax saharicus)” (International Journal of Molecular Sciences, 2020).
Where no end group is shown, it is not given here.

Assay: Circular dichroism in membrane-mimicking environments
Type: physicochemical
Details: CD

FLPALAGIAGLLGKIF-NH2 [Temporin-SHe]
percentage of α-helical content (−∆ε222nm per residue × 10) (DMPC/DMPG (3:1) LUVs, peptide/lipid 1:100, phosphate buffer pH 7.3): 95.5% | 222/208 nm amplitude ratio (DMPC/DMPG LUVs): 0.98 | 222/208 nm amplitude ratio (SDS micelles): 0.74 | percentage of α-helical content (−∆ε222nm per residue × 10) (peptide 30 µM in 80 mM SDS micelles): 31%
